According to article PMC4370629, “Structural and Functional Studies of Phosphoenolpyruvate Carboxykinase from Mycobacterium tuberculosis” (PLoS ONE, 2015):

Legend:
[1] = system: Nc1nc2c(ncn2[C@@H]2O[C@H](COP(=O)(O)OP(=O)(O)O)[C@@H](O)[C@H]2O)c(=O)[nH]1; assay: purified protein; conditions: pH 7.2
[2] = system: Nc1nc2c(ncn2[C@@H]2O[C@H](COP(=O)(O)OP(=O)(O)OP(=O)(O)O)[C@@H](O)[C@H]2O)c(=O)[nH]1; assay: purified protein; conditions: pH 7.2

Work on (Mycobacterium tuberculosis H37Rv) yielded a Km [1] of 66.6 ± 8.0 µM and a Km [2] of 180.8 ± 33.7 µM.
